Taken from: PubChem BioAssay AID1259414 (Drosophila RNAi Screening Center, 2018)
In all, the deposit lists about 24,000 reagents; this is an unselected part of those that have a named target and a result. Of all reagents, about 1,210 (5%) were called active. 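Inactive calls also include excluded dsRNAs with several or no targets, genes unexpressed in JW18, and well A1, regardless of score.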 Entries without a mark were called inactive.

- Assay: 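Host factors increasing or decreasing Wolbachia levels in cultured fly cells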 (primary screen)
- Cells: Drosophila JW18 cells infected with Wolbachia
- Knock-down reagent: long dsRNA against Drosophila genes, 0.25 µg dsRNA per well of a 384-well plate
- Duration: 5 days
- Conditions: cells persistently infected with Wolbachia before knock-down; no added drug
- Detection: 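Imaged fluorescence in situ signal for Wolbachia 23S rRNA per DAPI-counted host cell, given as a robust z-score within each plate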
- Reading the numbers: Wolbachia per cell robust z: higher = more Wolbachia per host cell than the plate typical
- Hit rule: 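Hit when robust z is 1.5 or more, or -1.5 or less, in at least two of three replicates; excludes dsRNAs with several or no targets, genes not expressed in JW18 and well A1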

CG8004 (GeneID 40178) [DRSC10947]
- Wolbachia per cell robust z, rep 1: -0.0708
- Wolbachia per cell robust z, rep 2: 0.106
- Wolbachia per cell robust z, rep 3: -0.663

CG8004 (GeneID 40178) [DRSC26615]
- Wolbachia per cell robust z, rep 1: -0.0674
- Wolbachia per cell robust z, rep 2: 0.739
- Wolbachia per cell robust z, rep 3: 0.871

CG42571 (GeneID 8674113) [DRSC41428]
- Wolbachia per cell robust z, rep 1: 0.468
- Wolbachia per cell robust z, rep 2: -1.79
- Wolbachia per cell robust z, rep 3: 0.499

ytr (GeneID 47457) [DRSC04306]
- Wolbachia per cell robust z, rep 1: -0.698
- Wolbachia per cell robust z, rep 2: -0.501
- Wolbachia per cell robust z, rep 3: 0.329

ytr (GeneID 47457) [DRSC22073]
- Wolbachia per cell robust z, rep 1: 0.0399
- Wolbachia per cell robust z, rep 2: -2.25
- Wolbachia per cell robust z, rep 3: -0.553

ytr (GeneID 47457) [DRSC25408]
- Wolbachia per cell robust z, rep 1: 0.198
- Wolbachia per cell robust z, rep 2: 0.504
- Wolbachia per cell robust z, rep 3: -0.551

GramD1B (GeneID 33552) [DRSC00426]
- Wolbachia per cell robust z, rep 1: 0.772
- Wolbachia per cell robust z, rep 2: 1.01
- Wolbachia per cell robust z, rep 3: -0.0854

GramD1B (GeneID 33552) [DRSC00591]
- Wolbachia per cell robust z, rep 1: 0.434
- Wolbachia per cell robust z, rep 2: -0.465
- Wolbachia per cell robust z, rep 3: -0.567

GramD1B (GeneID 33552) [DRSC23885]
- Wolbachia per cell robust z, rep 1: -0.695
- Wolbachia per cell robust z, rep 2: -0.709
- Wolbachia per cell robust z, rep 3: -1.23

GramD1B (GeneID 33552) [DRSC28705]
- Wolbachia per cell robust z, rep 1: -0.861
- Wolbachia per cell robust z, rep 2: -1.45
- Wolbachia per cell robust z, rep 3: 0.459

brwl (GeneID 34275) [DRSC01080]
- Wolbachia per cell robust z, rep 1: -1.23
- Wolbachia per cell robust z, rep 2: -1
- Wolbachia per cell robust z, rep 3: -1.48

brwl (GeneID 34275) [DRSC24965]
- Wolbachia per cell robust z, rep 1: 0.692
- Wolbachia per cell robust z, rep 2: 0.538
- Wolbachia per cell robust z, rep 3: 0.303

Cyp4e2 (GeneID 35822) [DRSC07371]
- Wolbachia per cell robust z, rep 1: -0.272
- Wolbachia per cell robust z, rep 2: -2.71
- Wolbachia per cell robust z, rep 3: -0.368

Tim17b1 (GeneID 40635) [DRSC12179]
- Wolbachia per cell robust z, rep 1: -0.975
- Wolbachia per cell robust z, rep 2: 0.421
- Wolbachia per cell robust z, rep 3: 0.555

mRpS25 (GeneID 32395) [DRSC19598]
- Wolbachia per cell robust z, rep 1: -0.0581
- Wolbachia per cell robust z, rep 2: 0.55
- Wolbachia per cell robust z, rep 3: -0.105

Rab7 (GeneID 42841) [DRSC16810]
- Wolbachia per cell robust z, rep 1: 3.35
- Wolbachia per cell robust z, rep 2: -0.00923
- Wolbachia per cell robust z, rep 3: -0.67

2 consecutive records already listed, quoted:
CG8004 (GeneID 40178) [DRSC26615]
- Wolbachia per cell robust z, rep 1: -0.0674
- Wolbachia per cell robust z, rep 2: 0.739
- Wolbachia per cell robust z, rep 3: 0.871

CG42571 (GeneID 8674113) [DRSC41428]
- Wolbachia per cell robust z, rep 1: 0.468
- Wolbachia per cell robust z, rep 2: -1.79
- Wolbachia per cell robust z, rep 3: 0.499
